# Laboratory results: PubChem BioAssay AID504761 (Drosophila RNAi Screening Center, 2011)
# Screen: 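Fly genes whose silencing reduces dengue virus type 2 infection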 (primary screen)
# Cell system: D.Mel-2 cells from Drosophila
# Knock-down reagent: long dsRNA against Drosophila genes
# Conditions: infection with dengue virus type 2; dose and infection time not stated
# Measurement: 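Cells stained for dengue envelope protein and imaged; percent of infected cells per well on duplicate plates, ranked by infection, with stained nuclei counted for cell number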
# Direction: infection score: higher = more virus-infected cells; cell count: higher = more cells in the well
# Hit rule: 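Low infection ranks in the two replicates (chance level up to 0.065) followed by a retest with a 1.5-fold or larger significant decrease, p below 0.05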
# Calls: active = confirmed: knock-down lowers infection; inactive = not picked or not confirmed
# The deposit covers about 22,000 reagents; shown is a random part of those that have a named target and a result. Over the whole deposit, 116 (0.52%) were called active. 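Calls depend on retest data that are not deposited; infection was ranked per plate without normalising between plates; the unit of the infection score is not given.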 Raw values are not corrected between plates. A number with no mark means an inactive call. The numbers tell different reagents against one gene apart. Names joined by + are all predicted targets of the reagent. Not given: the amount of reagent, the time to read-out.
gene knocked down,dsRNA no.,"infection score, replicate 1","infection score, replicate 2","cell count, replicate 1","cell count, replicate 2"
CG4594 (GeneID 34316),1,9.96,7.16,6194,6383
CG33107 (GeneID 326256),1,1.29,9.46,697,5721
beta-Man (GeneID 40524),1,11.8,4.76,4880,6529
beta-Man (GeneID 40524),2,0.61,1.44,656,6311
Cyp6a21 (GeneID 36665),1,20.1,13.2,5149,6033
CG33252 (GeneID 2768903),1,1.43,2.23,6731,6865
Dad1 (GeneID 34159),1,4.93,4.52,5926,6266
CG33477 (GeneID 2768726),1,2.51,2.73,5857,7428
CG13690 (GeneID 33213),1,23.7,2.85,4810,6146
CG42254 (retired record) (GeneID 36644),1,16.6,9.4,5578,6768
Fdh (GeneID 41311),1,11.2,11.3,6541,6418
CG43996 (GeneID 32689),1,0.6,3.41,6459,6836
CG43996 (GeneID 32689),2,4.07,4.57,6394,6481
CG15120 (GeneID 37248),1,1.83,4.76,6520,6408
CG31820 (GeneID 318961),1,2.06,1.5,6413,6716
CG31820 (GeneID 318961),2,13.3,32.9,5243,5328
CG17841 (GeneID 31965),1,3.85,1.78,6604,6680
CG17841 (GeneID 31965),2,18.3,8.98,5706,6161
CG5886 (GeneID 43125),1,1.12,2.11,6630,6577
SiaT (GeneID 37950),1,3.39,7.62,7163,6171
Sap130 (GeneID 39455),1,0.45,3.15,4642,4031
Sap130 (GeneID 39455),2,2.82,6.68,5632,4730
Gycalpha99B (GeneID 43493),1,2.68,4.15,6130,6309
Gycalpha99B (GeneID 43493),2,1.6,1.96,6171,5828
ND-15 (GeneID 33179),1,6.12,7.93,5429,5158
CG8243 (GeneID 35890),1,12.8,,2639,455
CG8243 (GeneID 35890),2,16,8.1,6858,5974
Gug (GeneID 46156),1,3.23,4,6162,6120
CG4866 (GeneID 36976),1,20.2,10.4,5813,5607
PIG-K (GeneID 31163),1,2.66,8.89,5480,5436
Sld5 (GeneID 43166),1,5.37,8.85,6553,5876
CG9395 (GeneID 34742),1,7.01,3.01,6779,6950
CG9395 (GeneID 34742),2,2.46,6.66,2479,6108
svr (GeneID 30998),1,3.94,2.91,6316,5604
svr (GeneID 30998),2,1.14,13.1,6750,5810
svr (GeneID 30998),3,20.3,7.34,6414,6352
CG6431 (GeneID 34476),1,2.61,4.88,6463,6431
Acsx1R + Acsx1L,1,1.99,13.7,6180,6426
GstE12 (GeneID 37960),1,6.89,8.65,6469,6645
GstE12 (GeneID 37960),2,9.49,15.7,6662,6291
CG15283 (GeneID 50454),1,13.4,3.85,5072,6356
CG13667 (GeneID 38956),1,6.21,6.11,6248,5978
Cat (GeneID 40048),1,3.24,2.64,6800,6640
Cat (GeneID 40048),2,9.24,8.17,6059,6024
CG33282 (GeneID 2768939),1,15,23.2,6553,6247
ush (GeneID 33225),1,0.83,2.06,3627,5299
ush (GeneID 33225),2,1.21,0.57,2151,2100
GCS2beta (GeneID 35056),1,7.36,2.48,6710,6810
GCS2beta (GeneID 35056),2,10.8,9.22,6596,6494
CG7130 (GeneID 40450),1,6.88,6.59,6151,6271
CG14615 (GeneID 33129),1,9.78,1.83,5703,5842
CG11655 (GeneID 32472),1,9.67,5.94,6134,6571
Tango5 (GeneID 326232),1,3.28,2.33,6898,6785
Tango5 (GeneID 326232),2,13.8,13.1,4491,5911
Sf3b2 (GeneID 33514),1,13.1,10.8,1432,1419
CG6791 (GeneID 41391),1,6.39,3.22,6622,6593
CG6791 (GeneID 41391),2,8.06,10.2,2010,6515
RpL37A (GeneID 44783),1,3.75,7.46,6420,6487
RpL37A (GeneID 44783),2,2.89,5.72,2322,2483

Copied from the list.
Under “infection score, replicate 1”, CG33282 (GeneID 2768939) shows 15
Result of Fdh (GeneID 41311) under “cell count, replicate 2”: 6418
Value for CG15120 (GeneID 37248) under “cell count, replicate 2”: 6408
Under “infection score, replicate 1”, CG4866 (GeneID 36976) is entered as 20.2
Result of CG17841 (GeneID 31965) #2 under “cell count, replicate 1”: 5706
For “infection score, replicate 2”, GCS2beta (GeneID 35056) #2 is entered as 9.22
